# Test results published in ChEMBL document CHEMBL4765236, “Insights into the Antimicrobial Activity and Cytotoxicity of Engineered α-Helical Peptide Amphiphiles” (J Med Chem, 2016).
# Tested on: Escherichia coli
# Assay: Antibacterial activity against Escherichia coli O157:H7 CICC 21530 assessed as bacterial growth inhibition incubated for 18 to 24 hrs by microtiter broth dilution method
# Assay type: functional
# Details: time 18-24 hrs
# Outline: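 Log-phase bacteria grown at 37 °C in MHB, diluted to 10^5 CFU/mL, mixed 1:1 with serial peptide dilutions (peptide diluted in 0.01% acetic acid, 0.2% BSA); 37 °C for 18-24 h. MIC read by OD492 as lowest concentration giving no growth; mean of 3-5 independent experiments.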
structure (smiles),measurement,value
CC[C@H](C)[C@H](NC(=O)CN)C(=O)NCC(=O)N[C@@H](C)C(=O)N[C@H](C(=O)N[C@@H](CC(C)C)C(=O)N[C@@H](CCCCN)C(=O)N[C@H](C(=O)N[C@@H](CC(C)C)C(=O)N[C@H](C(=O)N[C@H](C(=O)NCC(=O)N[C@@H](CC(C)C)C(=O)N1CCC[C@H]1C(=O)N[C@@H](C)C(=O)N[C@@H](CC(C)C)C(=O)N[C@H](C(=O)N[C@@H](CO)C(=O)N[C@@H](Cc1c[nH]c2ccccc12)C(=O)N[C@H](C(=O)N[C@@H](CCCCN)C(=O)N[C@@H](CCCNC(=N)N)C(=O)N[C@@H](CCCCN)C(=O)N[C@@H](CCCNC(=N)N)C(=O)N[C@@H](CCC(N)=O)C(=O)N[C@@H](CCC(N)=O)C(N)=O)[C@@H](C)CC)[C@@H](C)CC)[C@@H](C)O)[C@@H](C)O)C(C)C)C(C)C [MELITTIN],MIC,0.35 µM
